Primary screen of a compound library

The filed quantity is “Percent Effect” (%). The record does not define 0% and 100%; most values in the screen are far below 50% and negative numbers occur (in some assays of this library far below -100). Many other results are left out here, so strong results are more common than in the screen. A dash means the value is not listed here; it may have been measured.

Mtb glucose medium: 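Phenotypic screen: M. tuberculosis growth, glucose 7H9 medium, 3 days; the read-out is not stated. Tested at 500 µM. Direction is inferred from retests: higher values go with more growth inhibition. Of about 18,000 compounds tested this way, about 1,400 (7.9%) reached 50% or more in at least one test.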
Mtb cholesterol medium: 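Phenotypic screen: M. tuberculosis growth, cholesterol and DPPC medium, 4 days; the read-out is not stated. Tested at 500 µM. Direction is inferred from retests: higher values go with more growth inhibition. Of about 18,000 compounds tested this way, about 900 (5%) reached 50% or more in at least one test.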

| # | compound | Mtb glucose medium | Mtb cholesterol medium |
|---|---|---|---|
| 1 | `CCC(=O)OC(C)C(=O)Nc1ccc2c(c1)OCCO2` (stereo not drawn) | 17.67 | 14.38 |
| 2 | `CN(C)C(=O)NCCNc1cccc(Br)c1` | 34.81 | 23.32 |
| 3 | `CCOc1c(CNCCO)cc(Cl)cc1OC` | - | 8.091 |
| 4 | `CCCN(C)C(=O)Cn1ccc(=O)[nH]c1=O` | 12.51 | - |
| 5 | `CCNC(=O)N1CCN(c2ccncc2Cl)CC1` | - | 8.085 |
| 6 | `CCOC(=O)c1cnn(-c2ccc(Br)cn2)c1N` | -4.694 | -18.43 |
| 7 | `Cc1ccc(C(=O)NCCNc2ccncc2)c(=O)[nH]1` | 12.96 | - |
| 8 | `Cc1cc(Cl)ccc1NC(=O)CN1CCS(=O)(=O)CC1` | 12.83 | - |
| 9 | `COc1ccc(C(N)c2ccco2)cc1` (stereo not drawn) | 19.91 | 20.26 |
| 10 | `CC(=O)N1CCC2(CCNC2)C1` (stereo not drawn) | 5.995 | - |
| 11 | `O=C(Nc1nc2c(s1)COCC2)c1cnsn1` | -6.961 | - |
| 12 | `CC(CN)CNC(=O)OC(C)(C)C` (stereo not drawn) | - | -0.6249 |
| 13 | `NC1CCCN(c2ccccc2F)C1` (stereo not drawn) | -8.097 | -10.46 |
| 14 | `CCN(CC)CCOc1ccccc1CN` | -10.28 | - |
| 15 | `N#CC1(NC(=O)CCc2ccc(Cl)s2)CCOCC1` | 69.65 | 56.66 |
| 16 | `CSCC[C@H](NC(=O)C1CC1)c1nc2ccccc2[nH]1` | 6.215 | - |
| 17 | `N#CCCCn1ccccc1=O` | -1.968 | -7.093 |
| 18 | `COc1ccc(CN2CCCC(CO)C2)cc1OC` (stereo not drawn) | -0.3077 | - |
| 19 | `O=C(Nc1nncs1)c1ccccn1` | 73.71 | 46.03 |
| 20 | `CCC(C)OCC(=O)N(C)Cc1ccc(O)cc1` (stereo not drawn) | 32.08 | - |
| 21 | `CCOC(=O)C(C)(C)n1cc(N)cn1` | 32.95 | - |
| 22 | `NC[C@@H]1CCO[C@H]1c1ccccc1` | 13.6 | - |
| 23 | `CC(C)NC(=O)c1cccc(C(N)=O)c1` | -2.184 | - |
| 24 | `COCCn1cc(Br)cn1` | - | -10.61 |
| 25 | `COC(C(=O)NCCn1cccn1)c1ccccc1` (stereo not drawn) | 19.16 | - |
| 26 | `COCCNC(=O)C1CC(c2ccc(Cl)c(Cl)c2)=NO1` (stereo not drawn) | - | 0.2661 |
| 27 | `CC1CN(C)CCN1C(=O)c1cc(-c2ccco2)[nH]n1` (stereo not drawn) | -19.81 | - |
| 28 | `N#Cc1ccc(OCCN2CCCS2(=O)=O)cc1` | 2.883 | - |
| 29 | `CNC1CCN(C(=O)Cc2cc(F)ccc2F)CC1` | - | -0.3232 |
| 30 | `Cc1ccc(CN2CCNC(=O)CC2)c(Br)c1` | 9.581 | 23.26 |
| 31 | `NC(=O)NC1CCCNC1` (stereo not drawn) | - | -2.445 |
| 32 | `CCC(NC(=O)c1ccc(O)cc1F)[C@H]1C[C@H](O)C1` (stereo partly drawn) | 11.23 | - |
| 33 | `CC(NCC(C)(C)C(N)=O)c1ccc2c(c1)OCO2` (stereo not drawn) | - | -8.403 |
| 34 | `Cc1cnc(N)c(C)c1` | - | -4.811 |
| 35 | `Cc1ccc(S(N)(=O)=O)cc1N(C)C` | -4.065 | - |
| 36 | `CC(Cn1c(=O)[nH]c2ccccc2c1=O)N1CCCC1` (stereo not drawn) | 70.6 | 50.89 |
| 37 | `CC(C)Oc1cc(Br)ccc1C(=O)N(C)CC(N)=O` | 19.53 | - |
| 38 | `NCc1cccc(OCc2ccccn2)c1` | 52.85 | - |
| 39 | `COCCC(C)NC(=O)c1cc(O)nc2ccccc12` (stereo not drawn) | - | -23.09 |
| 40 | `CN1CCC(NC(=O)C2CC2)CC1` | -2.734 | - |
| 41 | `CC(C)(C)OCCOc1nnc2ccccn12` | - | 19.23 |
| 42 | `CNC(=O)c1ccc(S(=O)(=O)NC2CC2)o1` | - | -4.973 |
| 43 | `Cc1c(CN2CCSCC2)cccc1NS(C)(=O)=O` | 70.48 | - |
| 44 | `CCCNC(=O)C1CCN(C(=O)c2cc(Cl)c[nH]2)CC1` | 23.78 | - |
| 45 | `CN1CC(=O)Nc2cccnc21` | 91.84 | 92.12 |
| 46 | `CCN(C(=O)c1ccc(=O)n(C)n1)C1CCCC1` | - | -0.08588 |
| 47 | `CN(C(=O)Cc1ccc(Cl)cc1Cl)C1CCS(=O)(=O)C1` (stereo not drawn) | 24.18 | - |
| 48 | `OC1(CNCCCn2ncc3ccccc32)CCNC1` (stereo not drawn) | 18.7 | - |
| 49 | `CCn1ncc(N)c1C` | 13.96 | - |
| 50 | `NCc1ccc(-n2cc(Cl)cn2)cc1` | 0.591 | 13.71 |
| 51 | `NCCCn1ccnn1` | - | -2.228 |
| 52 | `CNCc1n[nH]c(=O)n1-c1ccc(C)c(Cl)c1` | - | 3.733 |
| 53 | `NCc1cccc(S(=O)(=O)N2CCCCC2)c1` | 41.11 | - |
| 54 | `CSCc1noc(CN2CCCC(N(C)C)CC2)n1` (stereo not drawn) | - | -21.23 |
| 55 | `O=C(COc1ccccc1Cl)NCC(=O)c1ccco1` | 52.2 | - |
| 56 | `O=S(=O)(NC1CCCC1)c1cncc(Cl)c1` | 69.36 | 42.29 |
| 57 | `CCc1nnc(N2CCN(C(=O)c3ccco3)CC2)o1` | 27.35 | - |

Some entries from above, unchanged:

- CCOC(=O)C(C)(C)n1cc(N)cn1 | Mtb glucose medium: 32.95%
- Cc1c(CN2CCSCC2)cccc1NS(C)(=O)=O | Mtb glucose medium: 70.48%
- CNC(=O)c1ccc(S(=O)(=O)NC2CC2)o1 | Mtb cholesterol medium: -4.973%
- CC(CN)CNC(=O)OC(C)(C)C (stereo not drawn) | Mtb cholesterol medium: -0.6249%
- CCn1ncc(N)c1C | Mtb glucose medium: 13.96%
- COCCC(C)NC(=O)c1cc(O)nc2ccccc12 (stereo not drawn) | Mtb cholesterol medium: -23.09%

The values are deposited in ChEMBL (CHEMBL3988442, “University of Dundee, Small-Polar-MMV Screening Library” (2021)).